Compound potency records, mixed from different reports. Data source: NIAID ChemDB in PubChem.

All rows: tests in culture; species: HIV-1; cells: MT-2; endpoint: EC50

Two numbers with a dash give a range or band. Conditions beyond the fields shown may differ between rows. An empty or dashed field is not shown. ECn: concentration that inhibits the pathogen or its effect by n%.

structure,strain,mutations,method,conditions,result
O=c1[nH]cnc2c1ncn2[C@H]1CC[C@@H](CO)O1,HX,-,RT activity,-,1.6 µM
Cc1c(Sc2ccccc2)n(COCCO)c(=O)[nH]c1=O,IIIB,-,cytopathic effect,-,5.6 µM
CC(C)(C)NC(=O)[C@@H]1CCCN1C(=O)[C@@H](O)[C@H](Cc1ccccc1)NC(=O)[C@H](CC(N)=O)NC(=O)COc1cccc2ccccc12,RF,-,p24,-,0.131 µM
Nc1nc2c(ncn2[C@H]2C=C[C@@H](CO)C2)c(=O)[nH]1,IIIB,-,cytopathic effect / XTT / RT activity,5 d,2.3 µM
CCOP(=O)(COc1ccc(C[C@H](NC(=O)O[C@H]2CO[C@H]3OCC[C@H]32)[C@H](O)CN(CC(C)C)S(=O)(=O)c2ccc(OC)cc2)cc1)OCC,IIIB,L441P,p24 / ELISA,-,0.008 µM
Nc1ncnc2c1ncn2CCOCP(=O)(O)O,RT P119S L214F,RT-P119S L214F,p24,-,1.3 µM
O=c1[nH]cnc2c1ncn2[C@H]1CC[C@@H](CO)O1,-,RT-delta67 T69G,p24,-,0.256 µM
Cc1cn([C@H]2C=C[C@@H](CO)O2)c(=O)[nH]c1=O,Site-directed mutant,RT-K65R H221Y,cytopathic effect / XTT,-,15.41 µM
CC(C)[C@H](NC(=O)N(C)Cc1ccccn1)C(=O)N[C@@H](Cc1ccccc1)[C@H](O)C(=O)N1[C@H](C(=O)NC(C)(C)C)C[C@@H]2CCCC[C@@H]21,RF,-,p24,-,0.24 µM
Nc1ccn([C@H]2CC[C@@H](CO)O2)c(=O)n1,HX,-,RT activity,-,0.22 µM
CC(C)CN(C[C@@H](O)[C@H](Cc1ccccc1)NC(=O)[C@@H](NC(=O)CNCc1cccc(F)c1)C(C)(C)C)S(=O)(=O)c1ccc(N)cc1,RF,-,virus yield,-,<0.0078 µM
CC(C)(C)NC(=O)[C@@H]1CN(Cc2cccnc2)CCN1C[C@@H](O)C[C@@H](Cc1ccccc1)C(=O)N[C@H]1c2ccccc2C[C@H]1O,BRU,-,RT activity,-,0.0287 µM
Nc1n[nH]c2ccc(CN3C(=O)N(Cc4ccc5[nH]nc(N)c5c4)[C@H](Cc4ccccc4)[C@H](O)[C@H]3CCc3ccccc3)cc12,RF,-,cytopathic effect / MTT,-,<0.383 µM
Nc1nc(NC2CC2)c2ncn([C@H]3C=C[C@@H](CO)C3)c2n1,Site-directed mutant,RT-L74V,cytopathic effect / XTT,-,7.25 µM
Nc1nc(NC2CC2)c2ncn([C@H]3C=C[C@@H](CO)C3)c2n1,-,RT-Q151M,cytopathic effect / MTT,-,5.5 µM
CC(C)=CCN1Cc2cccc3[nH]c(=S)n(c23)C[C@@H]1C,IIIB,RT-R83K,cytopathic effect,-,0.15 µM
CC(C)CN(C[C@@H](O)[C@H](Cc1ccccc1)NC(=O)[C@@H](NC(=O)CNCc1cccc(F)c1)C(C)(C)C)S(=O)(=O)c1cccc(N)c1,THAI 9466,-,virus yield,-,<0.011 µM
Nc1ncnc2c1ncn2[C@@H]1O[C@H](CO)C[C@@H]1F,RT F77L/F116Y/Q151M,RT-F77L F116Y Q151M,p24,-,18 µM
NC(=O)c1ncn([C@@H]2O[C@H](CO)[C@@H](O)[C@H]2O)c1N,IIIB,-,cytopathic effect / XTT,-,500 µM
Cc1cn([C@H]2C[C@H](N=[N+]=[N-])[C@@H](CO)O2)c(=O)[nH]c1=O,K65R(RT-K65R),RT-K65R,p24,-,0.016 µM
CC1=C(CCC(=O)O)c2cc3nc(cc4[nH]c(cc5[nH]c(cc1n2)c(C)c5C(O)CO)c(C)c4C(O)CO)C(C)=C3CCC(=O)O,IIIB,-,cytopathic effect,-,9.81 ± 1.79 µM
CCc1c(Sc2ccccn2)n(COCc2ccccc2)c(=O)[nH]c1=O,TIBO-RS,-,cytopathic effect,-,0.65 ± 0.25 µM
O=C(O)P(=O)(O)O,HXB2,TAM2 (D67N K70R T215F K219Q),-,-,10.5 µM
Cc1ccnc2c1NC(=O)c1cccnc1N2C1CC1,IIIB,-,cytopathic effect,-,0.48 ± 0.32 µM
CC(C)[C@H](NC(=O)COc1cccc2ccccc12)C(=O)N[C@@H](Cc1ccccc1)[C@H](O)C(=O)N1[C@H](C(=O)NC(C)(C)C)C[C@@H]2CCCC[C@@H]21,RF,-,p24,-,0.007–0.036 µM
O=C1N(Cc2ccccc2)[C@H](Cc2ccccc2)[C@H](O)[C@@H](O)[C@@H](Cc2ccccc2)N1Cc1ccc2ccccc2c1,RF,-,hybridisation,-,<7.5 µM
CO[P@](=O)(c1cc(C)cc(/C=C/C#N)c1)c1c(C(N)=O)[nH]c2ccc(Cl)c(F)c12,Clinical isolate,Y181C,-,-,0.0014 µM
O=C1N(Cc2cccc(-c3ccn[nH]3)c2)[C@H](CCc2ccccc2)[C@@H](O)[C@@H](Cc2ccccc2)N1Cc1cccc(-c2ccn[nH]2)c1,RF,-,cytopathic effect / MTT,-,<0.022 µM
Nc1ccn([C@H]2CC[C@@H](CO)O2)c(=O)n1,HXB2D,-,XTT,-,2 ± 0.5 µM
Nc1ccn([C@H]2CC[C@@H](CO)O2)c(=O)n1,RF,-,cytopathic effect / MTT,-,~0.1 µg/mL
CC(C)(C)NC(=O)[C@@H]1C[C@@H]2CCCC[C@@H]2CN1C[C@@H](O)[C@H](Cc1ccccc1)NC(=O)[C@H](CC(N)=O)NC(=O)c1ccc2ccccc2n1,RF,PR-G48V A71T V82A,-,-,0.17 µM
C=CCN1C(=O)N(Cc2ccc3ccccc3c2)[C@H](Cc2ccccc2)[C@H](O)[C@@H](O)[C@H]1Cc1ccccc1,RF,-,hybridisation,-,<0.99 µM
CC1=C(CCC(=O)O)c2cc3nc(cc4[nH]c(cc5[nH]c(cc1n2)c(C)c5C(COC(=O)c1ccc(N(C)C)cc1)OC(=O)c1ccc(N(C)C)cc1)c(C)c4C(COC(=O)c1ccc(N(C)C)cc1)OC(=O)c1ccc(N(C)C)cc1)C(C)=C3CCC(=O)O,IIIB,-,cytopathic effect,-,6.64 ± 3.02 µM
Nc1ccn([C@H]2CC[C@@H](CO)O2)c(=O)n1,J4A ddC-resistant,-,cytopathic effect / XTT / RT activity,5 d,8 µM
Nc1nc2c(ncn2[C@H]2CO[C@@H](CO)O2)c(=O)[nH]1,LAI WT,-,cytopathic effect / MTT,-,2.2 µM
Cc1cn([C@H]2C[C@H](N=[N+]=[N-])[C@@H](CO)O2)c(=O)[nH]c1=O,NL4-3 Recombinant,-,cytopathic effect / XTT,-,0.3 µM
CCCCN1C(=O)N(CCCC)[C@H](Cc2ccccc2)[C@H](O)[C@@H](O)[C@H]1Cc1ccccc1,RF,-,hybridisation,-,<0.68 µM
Cc1c(O)cccc1C(=O)N[C@@H](CSc1ccccc1)[C@H](O)CN1C[C@H]2CCCC[C@H]2C[C@H]1C(=O)NC(C)(C)C,RF,-,RT activity,-,0.0259 µM
Nc1nc(=O)n([C@@H]2CS[C@H](CO)O2)cc1F,Clinical isolate,M41L/D67N/K70R/M184V/L210W/T215Y/K219E,recombinant virus assay,-,>13.3 µM
N[C@@H](CCC(=O)O)C(=O)N[C@@H](Cc1ccc(O)cc1)C(=O)O,IIIB,-,cytopathic effect / neutral red,-,1.8 µg/mL
O=C1N(CC2CC2)[C@H](CCc2ccccc2)[C@@H](O)[C@@H](Cc2ccccc2)N1CC1CC1,RF,-,cytopathic effect / MTT,-,<5.2 µM
Nc1ccn([C@H]2CC[C@@H](CO)O2)c(=O)n1,HXB2D,-,p24,-,0.41 µM
CC(C)c1nc(CN(C)C(=O)N[C@H](C(=O)N[C@@H](Cc2ccccc2)C[C@H](O)[C@H](Cc2ccccc2)NC(=O)OCc2cncs2)C(C)C)cs1,BRU,-,RT activity,-,0.129 µM
CC(C)(C)NC(=O)[C@@H]1C[C@@H]2CCC[C@@H]2N1C(=O)[C@@H](O)[C@H](Cc1ccccc1)NC(=O)[C@H](CC(N)=O)NC(=O)OCc1ccccc1,RF,-,p24,-,0.078 µM
Nc1nc2c(ncn2[C@H]2CO[C@@H](CO)O2)c(=O)[nH]1,IIIB,-,-,-,0.045 µM
CCN(c1nc(F)ccc1NC(C)(C)C)C1CCN(C(=O)c2cc3cc(NC(=O)N4CCN(C)CC4)ccc3[nH]2)CC1,IIIB,-,p24 / ELISA,-,0.0261 µM
C#C[C@@]1(CO)C=C[C@H](n2cc(C)c(=O)[nH]c2=O)O1,IIIB,-,cytopathic effect / MTT,-,0.25 µM
O=C1N(Cc2cccc(I)c2)[C@H](Cc2ccccc2)[C@H](O)[C@@H](O)[C@@H](Cc2ccccc2)N1Cc1cccc(I)c1,RF,-,hybridisation,-,<3 µM
Nc1ccn([C@H]2CC[C@@H](CO)O2)c(=O)n1,RF,-,-,-,0.08 µg/mL
CC(C)(C)NC(=O)[C@@H]1C[C@@H]2CCCC[C@@H]2N1C(=O)[C@@H](O)[C@H](Cc1ccccc1)NC(=O)[C@H](CC(N)=O)NC(=O)COc1ccccc1,RF,-,p24,-,0.082 µM
Nc1nc2c(ncn2[C@H]2CO[C@@H](CO)O2)c(=O)[nH]1,Site-directed mutant,RT-L74V K103N,cytopathic effect / XTT,-,3.96 µM
O=C(O)P(=O)(O)O,IIIB,-,cytopathic effect,-,19.9 µM
CCc1c([Se]c2ccccn2)n(COCc2ccccc2)c(=O)[nH]c1=O,TIBO-RS,-,cytopathic effect,-,0.56 ± 0.22 µM
Cc1cn([C@H]2C=C[C@@H](CO)O2)c(=O)[nH]c1=O,Clinical isolate,M41L/D67N/K70R/Y181C/G190A/L210W/T215Y/K219E,recombinant virus assay,-,2.256 µM
Nc1ncnc2c1ncn2CCOCP(=O)(O)O,R82150 (RT-L100I),RT-L100I,cytopathic effect,-,2.25 µM
C[C@H](Cn1cnc2c(N)ncnc21)OCP(=O)(O)O,Saquinavir-resistant (G48V L90M),RT-G48V L90M,p24,-,1.2 µM
Nc1cccc(CN2C(=O)N(Cc3ccc4[nH]nc(N)c4c3)[C@H](CCc3ccccc3)[C@@H](O)[C@H]2Cc2ccccc2)c1,RF,-,cytopathic effect / MTT,-,<0.053 µM
C[C@H](Cn1cnc2c(N)ncnc21)OCP(=O)(O)O,Site-directed mutant,RT-K65R Y115F M184V,cytopathic effect / XTT,-,16.2 µM
Cc1ccnc2c1NC(=O)c1cccnc1N2C1CC1,NL4-3 WT,-,p24,-,0.017 µM
CC(C)CN(C[C@@H](O)[C@H](Cc1ccccc1)NC(=O)O[C@H]1CCOC1)S(=O)(=O)c1ccc(N)cc1,IIIB,M200I,p24 / ELISA,-,0.0473 µM
O=C1N(CC2CCC2)[C@H](Cc2ccccc2)[C@H](O)[C@@H](O)[C@@H](Cc2ccccc2)N1CC1CCC1,RF,-,hybridisation,-,<1 µM

Repeating the final 3 entries:

{"structure": "Cc1ccnc2c1NC(=O)c1cccnc1N2C1CC1", "strain": "NL4-3 WT", "method": "p24", "result": "0.017 µM"}
{"structure": "CC(C)CN(C[C@@H](O)[C@H](Cc1ccccc1)NC(=O)O[C@H]1CCOC1)S(=O)(=O)c1ccc(N)cc1", "strain": "IIIB", "mutations": "M200I", "method": "p24 / ELISA", "result": "0.0473 µM"}
{"structure": "O=C1N(CC2CCC2)[C@H](Cc2ccccc2)[C@H](O)[C@@H](O)[C@@H](Cc2ccccc2)N1CC1CCC1", "strain": "RF", "method": "hybridisation", "result": "<1 µM"}